Anti-infective test results gathered from many reports (values: NIAID ChemDB through PubChem).

All rows: whole-cell or culture tests; species: HIV-1; cell line: MT-4; read-out: inhibition

Inhibition is in % at the dose shown (toxicity tests: loss of growth or viability). Blank or dashed fields: not listed here. Two numbers with a dash give a range or band. Lines come from different laboratories, so protocols vary.

compound | strain | changes | method | setting | dose | value
O=C(NCCc1ccccc1)NCc1ccoc1 | - | - | cytopathic effect / XTT | - | 10 µg/mL | 7%
CCOC(=O)c1cn2c(c1O)C(=O)N(Cc1ccc(F)c(Cl)c1)CC2 | IIIB | - | p24 / ELISA | - | 0.94 µM | >95%
O=C(NCc1ccc(F)cc1)c1ncc2cccnc2c1O | - | - | p24 | 10% FBS | 1.25 µM | >95%
C=C1[C@H](n2cnc3c(N)ncnc32)O[C@@H]1CO | - | - | antigen | - | 10 µg/mL | 97%
CN1CCc2c(c(O)c3n2CCN(Cc2ccc(F)cc2)C3=O)C1=O | IIIB | - | p24 / ELISA | - | 0.39 µM | >95%
CC(=O)N[C@@H](Cc1c[nH]c2ccccc12)C(=O)N[C@H](C(=O)N[C@@H](CC(C)C)[C@@H](O)CC(=O)N[C@H](C(=O)N[C@H](C(=O)OCc1ccccc1)C(C)C)C(C)C)C(C)C | - | - | syncytia | - | 40 µM | 0%
CCCCN1C(=O)[C@@H](Cc2ccccc2)NC1=S | - | - | RT activity | - | 1 µg/mL | 11%
O=c1[nH]cnc2c1ncn2[C@H]1C[C@@H](CO)O1 | - | - | antigen | - | 100 µg/mL | >99.9%
CC(C)CN(C[C@@H](O)[C@H](Cc1ccccc1)NC(=O)O[C@H]1CO[C@H]2OCC[C@H]21)S(=O)(=O)c1ccc2nc(NC3CCN(C4CCCC4)CC3)sc2c1 | LAI | - | reporter gene | - | 0.00947 µM | 90%
COc1ncnc(NS(=O)(=O)c2ccc(N=C3C(=O)N(CN4CCOCC4)c4ccccc43)cc2)c1OC | LAI | - | cytopathic effect / MTT | - | 2 µg/mL | 12%
CC(C)C[C@H](NC(=O)[C@H](C)NC(=O)C[C@H](O)[C@H](CC(C)C)NC(=O)[C@@H](NC(=O)[C@H](Cc1ccc(O)cc1)NC(=O)OCc1ccccc1)C(C)C)[C@@H](O)CC(=O)O | - | - | syncytia | - | 40 µM | 0%
O=c1[nH]c(=O)n([C@@H]2C[C@H](F)[C@@H](CO)O2)cc1CN1CCCCC1 | IIIB | - | ELISA | - | 100 µM | 0%
CC1(C)[C@@H](O[C@H]2O[C@H](C(=O)O)[C@@H](O)[C@H](O)[C@H]2O[C@@H]2O[C@H](C(=O)O)[C@@H](O)[C@H](O)[C@H]2O)CC[C@]2(C)[C@H]3C(=O)C=C4[C@@H]5C[C@@](C)(C(=O)O)CC[C@]5(C)CC[C@@]4(C)[C@]3(C)CC[C@@H]12 | IIIB | - | cytopathic effect / MTT | - | 620 µM | 81.9%
N#Cc1cc(Cl)cc(Oc2c(Cl)ccc3c2ncn3Cc2[nH]nc3ncccc23)c1 | - | - | - | 50% human serum | 0.39 µM | >95%
Cc1cc(C)cc(S(=O)(=O)c2c(C(N)=O)[nH]c3ccc(Cl)cc23)c1 | - | - | p24 | - | 0.005 µM | 90%
O=C(NCCc1ccccc1)Nc1nc2ccc(F)cc2s1 | - | - | RT activity | - | 100 µg/mL | 95%
NC1=NS(=O)(=O)N([C@H]2CS[C@@H](CO)O2)C=C1 | RF | - | - | - | 100 µg/mL | 0%
CC(=O)N[C@H]1CSSC[C@@H](C(=O)N[C@@H](CCC(N)=O)C(=O)O)NC(=O)[C@H](Cc2cnc[nH]2)NC(=O)[C@H](Cc2ccccc2)NC1=O | NL4-3 | - | RT activity | 6 d | 2.5 µM | 0%
CCOC(=O)c1cn2c(c1O)C(=O)N(Cc1cccc(F)c1)CC2 | IIIB | - | p24 / ELISA | - | 9.38 µM | >95%
CC1(C)[C@@H](O[C@H]2O[C@H](C(=O)O)[C@@H](O)[C@H](O)[C@H]2O[C@@H]2O[C@H](C(=O)O)[C@@H](O)[C@H](O)[C@H]2O)CC[C@]2(C)[C@H]3C(=O)C=C4[C@@H]5C[C@@](C)(C(=O)O)CC[C@]5(C)CC[C@@]4(C)[C@]3(C)CC[C@@H]12 | IIIB | - | antigen | - | 300 µM | 68.4%
CN1CCn2c3c(c(O)c2C1=O)C(=O)N(Cc1ccc(F)cc1)CC3 | IIIB | - | p24 / ELISA | - | 0.16 µM | >95%
NC1=NS(=O)(=O)N(Cc2ccccc2)c2ncn([C@@H]3CS[C@@H](CO)O3)c21 | RF | - | - | - | 100 µg/mL | 0%
O=c1[nH]cnc2c1ncn2[C@@H]1O[C@H](CO)[C@H]1COS(=O)(=O)O | - | - | antigen | - | 10 µg/mL | 90%
CC(C)C[C@H](NC(=O)[C@H](C)NC(=O)C[C@H](O)[C@H](CC(C)C)NC(=O)[C@@H](NC(=O)[C@H](Cc1ccc(O)cc1)NC(=O)OCc1ccccc1)C(C)C)[C@@H](O)CC(N)=O | - | - | syncytia | - | 40 µM | 0%
CN1CCN(Cc2cn([C@H]3C[C@H](F)[C@@H](CO)O3)c(=O)[nH]c2=O)CC1 | IIIB | - | ELISA | - | 100 µM | 0%
O=C1C=CN([C@H]2CS[C@@H](CO)O2)S(=O)(=O)N1 | RF | - | - | - | 100 µg/mL | 0%
CCCCCCCCCCCCCCCCOCC(COP(=O)(O)O)OCCCCCCCCCCCCCCCC | IIIB | - | cytopathic effect / MTT | - | 5 µM | 4%
CC(CO[C@@H]1O[C@H](COS(=O)(=O)O)[C@@H](OS(=O)(=O)O)[C@H](O[C@@H]2O[C@H](COS(=O)(=O)O)[C@@H](OS(=O)(=O)O)[C@H](O[C@@H]3O[C@H](COS(=O)(=O)O)[C@@H](OS(=O)(=O)O)[C@H](O[C@@H]4O[C@H](COS(=O)(=O)O)[C@@H](OS(=O)(=O)O)[C@H](O[C@@H]5O[C@H](COS(=O)(=O)O)[C@@H](OS(=O)(=O)O)[C@H](OS(=O)(=O)O)[C@H]5OS(=O)(=O)O)[C@H]4OS(=O)(=O)O)[C@H]3OS(=O)(=O)O)[C@H]2OS(=O)(=O)O)[C@H]1OS(=O)(=O)O)CC(C)(C)C | IIIB | - | cytopathic effect / MTT | - | 0.001 µg/mL | 40%
CC(=O)N[C@@H](CCC(N)=O)C(=O)N[C@@H](C)C(=O)N[C@@H](CC(C)C)[C@@H](O)CC(=O)N[C@H](C(N)=O)C(C)C | IIIB | - | ELISA / antigen | - | 200 µM | 40%
Fc1cccc(Cl)c1CCNC(=S)Nc1nccs1 | - | - | cytopathic effect / XTT | - | 1 µg/mL | 98–100%
C=C1C[C@H](n2cc(C)c(=O)[nH]c2=O)O[C@@H]1CO | - | - | cytopathic effect | - | 500 µg/mL | 0%
O=C1C=CN([C@@H]2CS[C@@H](CO)O2)S(=O)(=O)N1 | RF | - | - | - | 100 µg/mL | 0%
[N-]=[N+]=N[C@H]1[C@H](n2cnc3c(N)ncnc32)O[C@@H]1CO | - | - | antigen | - | 10 µg/mL | 25%
O=C1c2c(O)c(O)cc(=O)n2CCN1Cc1ccc(F)cc1 | - | - | p24 / ELISA | - | 0.31 µM | ≥95%
O=C(NCCc1ccccc1)Nc1nc2c(Cl)cccc2s1 | - | - | cytopathic effect / XTT | - | 1 µg/mL | 4%
O=C(/C=C(\O)c1ncn[nH]1)c1ccc(Cc2ccc(F)cc2)o1 | IIIB | - | - | - | 0.74 µM | 90%
N#Cc1cc(Cl)cc(Oc2c(Cl)ccc3c2nnn3Cc2[nH]nc3ncccc23)c1 | - | Y181C | - | - | 0.018 µM | >95%
NC1=NS(=O)(=O)N(Cc2ccccc2)c2ncn([C@H]3CS[C@@H](CO)O3)c21 | RF | - | - | - | 100 µg/mL | 0%
COC(=O)C[C@H](O)C(CC(C)C)NC(=O)[C@H](C)NC(=O)C[C@H](O)[C@H](Cc1ccc(O)cc1)NC(=O)[C@@H](NC(=O)[C@H](Cc1ccc(O)cc1)NC(=O)OCc1ccccc1)C(C)C | - | - | syncytia | - | 40 µM | 0%
NC(=O)CC[C@H](NC(=O)COc1cccc(NC(=O)[C@@H](N)Cc2ccc(O)cc2)c1)C(=O)N[C@@H](Cc1c[nH]c2ccccc12)C(=O)N[C@@H](CC(=O)O)C(=O)N[C@@H](Cc1ccccc1)C(=O)NCC(=O)O | GUN1 WT | - | syncytia | - | 100 µg/mL | 10–50%
O=c1[nH]c(=O)n([C@@H]2C[C@H](F)[C@@H](CO)O2)cc1CN1CCN(Cc2ccccc2)CC1 | IIIB | - | ELISA | - | 100 µM | 0%
CC1(C)[C@@H](O[C@H]2O[C@H](CO)[C@@H](O)[C@H](O)[C@H]2O[C@@H]2O[C@H](CO)[C@@H](O)[C@H](O)[C@H]2O)CC[C@]2(C)C3C=CC4=C5C[C@@](C)(CO)CC[C@]5(C)CC[C@@]4(C)[C@]3(C)CC[C@@H]12 | IIIB | - | cytopathic effect / MTT | - | 160 µM | 56.7%
N#Cc1cc(Cl)cc(Oc2c(Cl)ccc3c2cnn3Cc2[nH]nc3ncccc23)c1 | - | - | - | - | 0.011 µM | >95%
COC(=O)C[C@H](O)C(CC(C)C)NC(=O)[C@H](C)NC(=O)CC(O)C(CC1CCCCC1)NC(=O)[C@@H](NC(=O)[C@H](Cc1ccc(O)cc1)NC(=O)OCc1ccccc1)C(C)C | - | - | syncytia | - | 40 µM | 0%
CN(C)c1ccc(Nc2c3ccc(NC(=O)CCN4CCCC4)cc3nc3cc(NC(=O)CCN4CCCC4)ccc23)cc1 | IIIB | - | p24 / ELISA / antigen | - | 0.067 µM | 35%
O=c1[nH]c(=O)n([C@@H]2C[C@H](F)[C@@H](CO)O2)cc1CN1CCOCC1 | IIIB | - | ELISA | - | 100 µM | 0%
Cc1ccc(C2CC2)c(-c2ccc3c(c2)CCCO3)c1[C@H](OC(C)(C)C)C(=O)O | NL4-3 | - | luminescence | - | 0.013 µM | 89%

For reference, 3 entries again:

compound	strain	changes	method	setting	dose	value
N#Cc1cc(Cl)cc(Oc2c(Cl)ccc3c2nnn3Cc2[nH]nc3ncccc23)c1	-	Y181C	-	-	0.018 µM	>95%
NC1=NS(=O)(=O)N(Cc2ccccc2)c2ncn([C@@H]3CS[C@@H](CO)O3)c21	RF	-	-	-	100 µg/mL	0%
CC(=O)N[C@@H](Cc1c[nH]c2ccccc12)C(=O)N[C@H](C(=O)N[C@@H](CC(C)C)[C@@H](O)CC(=O)N[C@H](C(=O)N[C@H](C(=O)OCc1ccccc1)C(C)C)C(C)C)C(C)C	-	-	syncytia	-	40 µM	0%